{"sequences": {"note": "Amino acid sequences for entries named in this document (tags omitted).", "UniProt Q9GZU1, whole entry": "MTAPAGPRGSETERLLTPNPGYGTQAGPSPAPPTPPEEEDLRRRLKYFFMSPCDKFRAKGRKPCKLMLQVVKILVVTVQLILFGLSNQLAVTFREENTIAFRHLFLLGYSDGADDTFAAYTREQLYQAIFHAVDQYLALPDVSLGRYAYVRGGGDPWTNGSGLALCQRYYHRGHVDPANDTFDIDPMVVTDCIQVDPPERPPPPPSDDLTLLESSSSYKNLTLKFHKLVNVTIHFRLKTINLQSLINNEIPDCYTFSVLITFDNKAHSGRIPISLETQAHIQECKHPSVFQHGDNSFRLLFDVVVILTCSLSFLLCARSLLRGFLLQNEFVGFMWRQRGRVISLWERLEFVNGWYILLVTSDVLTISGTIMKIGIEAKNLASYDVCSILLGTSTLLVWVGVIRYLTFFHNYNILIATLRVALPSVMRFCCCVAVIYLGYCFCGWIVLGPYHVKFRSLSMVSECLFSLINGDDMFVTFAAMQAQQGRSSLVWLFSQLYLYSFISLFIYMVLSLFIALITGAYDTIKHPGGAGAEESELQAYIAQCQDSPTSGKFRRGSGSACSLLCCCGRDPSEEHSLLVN"}, "source": "PubChem BioAssay AID624415", "about": "(National Center for Advancing Translational Sciences (NCATS), 2012)", "note": "This is a selection; strong and weak results do not stand in their true shares. Calls of active or inactive are those of the source. No stated cut-off is given here; in the data, active means activity change below about -50%; inconclusive means between about -30% and that limit; inactive means weaker than that. On the % scale 0 is the no-effect control and ±100 the full control effect."}
{"target": "Mucolipin-1 (Homo sapiens) (UniProt Q9GZU1)", "test": "qHTS for Inhibitors of the Human Mucolipin Transient Receptor Potential 1 (TRPML1);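 further: stimulus is agonist 54-4 at its EC80 concentration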", "details": "TRPML1-inducible cells, Ca2+ dye fluorescence, FDSS; active compounds read low; inhibition of EC80 agonist-evoked calcium signal", "from_the_text": "Mutations of human Mucolipin transient receptor potential 1 (TRPML1) cause type IV mucolipidosis (ML4), a devastating neurodegenerative disease in young children. […] Currently, there is no treatment for ML4. […] Under physiological conditions, TRPMLs regulate membrane trafficking by transducing information about PI(3,5)P2 levels into changes in juxtaorganellar Ca2+, thereby triggering membrane fusion/fission events in the late endocytic pathways (endolysosomal trafficking). In addition, TRPML1 mediates release of Fe2+ from late endosomes and lysosomes, which is essential for cellular iron metabolism. Thus, impaired ion (Ca2+ and Fe2+) homeostasis underlies lysosomal dysfunction and ML4 phenotypes. In ML4 cells, the problem is twofold. First, defective Ca2+-dependent membrane trafficking due to TRPML1-deficiency causes accumulation of lipids and other bio-materials in the lysosome. The second strike comes from the lysosomal iron overload (due to impairment of TRPML1's Fe2+ conductivity), which converts the accumulated materials into the nondegradable (resistant to lysosomal degradation) lipofuscin (also called aging pigment) in the lysosome. Lipofuscin accumulation dramatically compromises the functions of lysosomes.\nNiemann-Pick type C (NPC) disease is another lysosome storage disease (LSD) with severe neurodegeneration during the childhood. Currently, there is no cure for NPC. […] Thus, TRPML1 is likely to be an essential regulator of lysosome ion homeostasis. We specifically hypothesize that stimulating TRPML1's Fe2+/Ca2+ channel activity in the lysosome using synthetic agonists can alleviate neurodegeneration associated with ML4 or NPC.\nTo this end, a high throughput screen was developed in a miniaturized format to screen against the Molecular Libraries Small Molecule Repository (MLSMR) to find small molecules that act either as inhibitors or agonist against the TRPML1 channel.\nNIH Chemical Genomics Center [NCGC]\nNIH Molecular Libraries Probe Centers Network [MLPCN]\nAssay Submitter (PI): Haoxing Xu, University of Michigan Ann Arbor\nTRPML1-DL cells are dissociated from flasks, counted and, brought up to a density of 500,000 cells per mL of media containing a 1X Tet inducer. Using a Multidrop Combi, 3 uL of this cell solution is dispensed to each well of a 1536 TC treated, black, clear bottom hi base plate for a final cell density of 1,500 cells per well. The assay plates are incubated overnight (approximately 16 hours) at 37 degrees C and 5% CO2. Using a Multidrop Combi, 2 uL of ABD Ca8 no wash dye plus quencher is added to each well. The assay plates incubate at room temperature in the dark for 45-90 minutes. The assay plate is read on the FDSS using the following protocol: 10 second baseline read, 23 nL of compounds and controls are added using 1536 pintool, agonist read for 110 seconds, 1 uL EC80 addition (4 uM final 54-4 diluted in media), antagonist read for 110 seconds."}
{"smiles": "Cc1cc(C)cc(OP(C)(=O)Nc2ccc(SC(F)(F)F)cc2)c1", "note": "(configuration not stated)", "activity change, negative = inhibition": "inactive: 52.6%"}
{"smiles": "CP(=O)(Nc1ccc(SC(F)(F)F)cc1)Oc1ccc(Cl)cc1", "note": "(configuration not stated)", "activity change, negative = inhibition": "inactive: 46%"}
{"smiles": "Cc1cccc(C)c1OP(C)(=O)Nc1ccc(SC(F)(F)F)cc1", "note": "(configuration not stated)", "activity change, negative = inhibition": "inactive: 2.51%"}
{"smiles": "COP1(=S)c2c(C)nn(CCC#N)c2N=C(c2ccc(F)cc2)N1C", "note": "(configuration not stated)", "activity change, negative = inhibition": "inactive: 4.2%"}
{"smiles": "CP(=O)(Oc1ccccc1)OC(c1ccccc1)C(F)(F)F", "note": "(configuration not stated)", "activity change, negative = inhibition": "inactive: 28%"}
{"smiles": "CCC(C)N(CC(C)C)C(=S)SC(NC(C)=O)C(Cl)(Cl)Cl", "note": "(configuration not stated)", "activity change, negative = inhibition": "inactive: -11.7%"}
{"smiles": "CP(=O)(Nc1ccccn1)Oc1ccc(Cl)cc1", "note": "(configuration not stated)", "activity change, negative = inhibition": "inactive: 0.423%"}
{"smiles": "CCOP(=O)(Nc1cccc2cccnc12)OCC", "activity change, negative = inhibition": "inactive: -0.317%"}
{"smiles": "CCOP(C)(=S)SCC(=O)NC(C)C(=O)O", "note": "(configuration not stated)", "activity change, negative = inhibition": "inactive: 23.7%"}
{"smiles": "O=C(OC1CN2CCC1CC2)c1cccc([N+](=O)[O-])c1", "note": "(configuration not stated)", "activity change, negative = inhibition": "inactive: -11.1%"}
{"smiles": "CSc1ccc(Nc2c([N+](=O)[O-])cc([N+](=O)[O-])cc2[N+](=O)[O-])cc1", "activity change, negative = inhibition": "inactive: 9.92%"}
{"smiles": "O=[N+]([O-])c1cc([N+](=O)[O-])c(O)c([N+](=O)[O-])c1.c1ccc(Oc2ccncc2)cc1", "activity change, negative = inhibition": "inactive: -4.95%"}
{"smiles": "CCOC(=O)c1ccc(NP(C)(=O)Oc2ccc(OC)cc2)cc1", "note": "(configuration not stated)", "activity change, negative = inhibition": "inactive: 6.32%"}
{"smiles": "CCOC(=O)c1ccc(NC(=O)C(C)(CCl)SC)cc1", "note": "(configuration not stated)", "activity change, negative = inhibition": "inactive: 35.2%"}
{"smiles": "COP(=O)(OC)N1CC1c1ccccc1", "note": "(configuration not stated)", "activity change, negative = inhibition": "inactive: 13.4%"}
{"smiles": "CCCCOc1ccc(C(=O)NCC2(N3CCCCC3)CCCCC2)cc1OC", "activity change, negative = inhibition": "inactive: -1.54%"}
{"smiles": "Cc1cc(SC(NC(=O)c2ccccc2)C(Cl)(Cl)Cl)nc(C(C)C)n1", "note": "(configuration not stated)", "activity change, negative = inhibition": "inactive: -14.2%"}
{"smiles": "O=C(O)C(=O)c1ccc(N(CCCl)CCCl)cc1.c1ccc(Nc2ccccc2)cc1", "activity change, negative = inhibition": "inactive: 92.3%"}
{"smiles": "CC1CCNP(=O)(N(CCCl)CCCl)O1", "note": "(configuration not stated)", "activity change, negative = inhibition": "inactive: 7.16%"}
{"smiles": "Cc1cc(SC(NC=O)C(Cl)(Cl)Cl)ncn1", "note": "(configuration not stated)", "activity change, negative = inhibition": "inactive: 15.5%"}
{"smiles": "O=P(Nc1ccccn1)(c1cccc2ccccc12)c1cccc2ccccc12", "activity change, negative = inhibition": "inactive: -17%"}
{"smiles": "COc1ccccc1OP(C)(=O)Nc1ccccc1", "note": "(configuration not stated)", "activity change, negative = inhibition": "inactive: 14.6%"}
{"smiles": "CP(=O)(Nc1ccccc1Br)Oc1ccccc1", "note": "(configuration not stated)", "activity change, negative = inhibition": "inactive: -10.3%"}
{"smiles": "O=[N+]([O-])c1ccc(Nc2ccc(Oc3ccc([N+](=O)[O-])cc3[N+](=O)[O-])cc2)c([N+](=O)[O-])c1", "activity change, negative = inhibition": "inactive: 4.91%"}
{"smiles": "CP(=S)(Nn1cnnc1)Oc1ccccc1", "note": "(configuration not stated)", "activity change, negative = inhibition": "inactive: -9.66%"}
{"smiles": "CCOC(=O)Nc1cccc([As](=O)(O)O)c1", "activity change, negative = inhibition": "inactive: 48.2%"}
{"smiles": "O=[N+]([O-])c1cc([N+](=O)[O-])c(Nc2nnnn2CCO)c([N+](=O)[O-])c1", "activity change, negative = inhibition": "inactive: -4.55%"}
